Anti-infective test results gathered from many reports (values: NIAID ChemDB through PubChem).

Common to all: growth or infection tests; species: Mycobacterium tuberculosis

MIC bound comes from a single tested concentration. A number after MIC or MFC names an inhibition level or a share of isolates. An empty or dashed field is not shown. ECn: concentration that inhibits the pathogen or its effect by n%. Neighbouring rows are from separate reports. Percent inhibition refers to the dose given; in toxicity tests it is the harm to the cells.

smiles,tested at,strain,cell line,changes,read-out,read by,result
C[C@@H]1Cn2cc(C(=O)O)c(=O)c3cc(F)c(N4CCN(/C(N)=N/C(N)=NCCCCCCN=C(N)/N=C(\N)N5CCN(c6c(F)cc7c(=O)c(C(=O)O)cn8c7c6O[C@@H](C)C8)CC5)CC4)c(c32)O1,,ATCC 35830,,,MIC,broth dilution,0.625 µg/mL
CC(C(=O)N1c2ccccc2Sc2ccccc21)[N+]1(C)CCCC1.[Br-],,H37Rv,,,MIC bound,BACTEC,>12.5 µg/mL
CC(C)(C)c1ccc(CSc2nc(=O)[nH]c3nc[nH]c23)cc1,6.25 µg/mL,H37Rv,,,inhibition,,32%
Fc1ccccc1-n1ncc(C(c2ccccc2)n2ccnc2)c1-c1ccccc1,,ATCC 35828 (pyrazinamide-resistant),,,MIC90,,≥100 µM
O=c1[nH]ncc(Cl)c1Cl,6.25 µg/mL,,,,inhibition,resazurin,35%
CC(=O)Nc1ccc(C)cc1C,,H37Rv,,,MIC,,>100 µg/mL
COc1cc(C(=O)C/C(CCC(=O)Nc2ccc(Cl)cc2Cl)=N/NC(=O)C(=O)NN)ccc1O,,H37Rv,,,MIC bound,BACTEC,>12.5 µg/mL
CN1CCN(c2ccc3c(=O)n4c(nc3c2)C(=O)c2cc(F)ccc2-4)CC1,,H37Rv,,,MIC,,1 µg/mL
Cc1c(Cl)cc(Cl)cc1C(=O)c1ccccc1C(=O)O,,H37Rv,,,MIC,,>100 µg/mL
Clc1ccccc1C(c1ccccc1)(c1ccccc1)n1ccnc1,,ATCC 35822 (isoniazid-resistant),,,MIC90,,≥100 µM
CCNCc1ccc(OC)cc1.Cl,,H37Rv,,,MIC,,>100 µg/mL
Clc1ccc2c(Cl)cc(N3CCOCC3)nc2n1,6.25 µg/mL,H37Rv,,,inhibition,BACTEC,38%
CCN(CC)CCCC(C)Nc1ccnc2c1ccc1c(NC(C)CCCN(CC)CC)ccnc12,12.5 µg/mL,H37Rv,,,inhibition,BACTEC,3%
COc1ccccc1CSc1ccccn1,6.25 µg/mL,H37Rv,,,inhibition,,5%
CN(C)c1ccc(C=O)cc1,,H37Rv,,,MIC,,>100 µg/mL
Clc1nc(Sc2ccccn2)c2[nH]cnc2n1,,H37Rv,,,MIC90,,>6.25 µg/mL
CC1=C2[C@H]3OC(=O)[C@@H](C)[C@@H]3CC[C@@]2(C)C=CC1=O,,H37Rv,,,MIC,,>100 µg/mL
O=C(/C=C/c1ccccc1)c1cccc2ccccc12,,H37Rv,,,MIC,,>12.5 µg/mL
CCOC(=O)c1csc(CCCOc2ccccc2)c1N.Cl,,H37Rv,,,MIC,,50 µg/mL
CNC(=O)c1ccc[n+](C2OC(COC(=O)c3ccccc3)C(OC(=O)c3ccccc3)C2OC(=O)c2ccccc2)c1.[Br-],12.5 µg/mL,H37Rv,,,inhibition,BACTEC,18%
O=C1OC(=O)c2c(I)cccc21,,H37Rv,,,MIC,,25 µg/mL
Clc1ccc(-n2ncc(C(c3ccccc3)n3ccnc3)c2-c2ccccc2)cc1,,ATCC 35822 (isoniazid-resistant),,,MIC50,,≥100 µM
Cc1ccc2c(c1)NCCC2,,H37Rv,,,MIC,,>100 µg/mL
CCSc1nc(Cl)nc2nc[nH]c12,,H37Rv,,,MIC90,,>6.25 µg/mL
O=C1c2cc(F)ccc2-n2c1nc1cc(F)ccc1c2=O,,H37Rv,,,MIC,,<0.5 µg/mL
COc1ccc(-c2cc(=O)c3cc(I)ccc3o2)cc1,,H37Rv,,,MIC,,>12.5 µg/mL
c1ccc(SCCCCSc2ccccc2)cc1,,H37Rv,,,MIC,,>100 µg/mL
CC(=O)NC[C@H]1CN(c2ccc(N3CCOCC3)c(F)c2)C(=O)O1,,Clinical isolate 309,,INH RIF resistant,MIC,resazurin,0.5 µg/mL
CCN(CC)Cc1cc(N)ccc1O.Cl,,H37Rv,,,MIC,,>100 µg/mL
COC1C[C@H](C)[C@@H](OC)C2=CC(=O)C=C(NC(=O)/C(C)=C/C=C\[C@H](C)C(OC(N)=O)/C(C)=C/[C@@H](C)[C@@H]1OC)C2=O,,RMP-R,,,MIC,,12.5 µg/mL
CC1COc2c(N3CCN(C)CC3)c(F)cc3c(=O)c(C(=O)O)cn1c23,,900145,,,MIC,,0.5 µg/mL
O=C(/C=C/c1cc2ccccc2c2ccccc12)c1cccc(O)c1,,H37Rv,,,MIC,,31.5 µg/mL
Cc1cc(Cl)nc(N)n1,,H37Rv,,,MIC,,>100 µg/mL
COc1ccc2c(c1)N(C(=O)N(CCOC(=O)Nc1ccccc1)CCOC(=O)Nc1ccccc1)c1ccccc1S2,,H37Rv,,,MIC bound,BACTEC,>12.5 µg/mL
Cc1ccc2c(Cl)c(C)c(N3CCCCC3)nc2n1,,H37Rv,,,EC50,BACTEC,>6.25 µg/mL
C[N+](C)=c1ccc2nc3c(cc(Nc4cccc(Nc5cc6oc7cc(=[N+](C)C)ccc-7nc6c6ccccc56)n4)c4ccccc43)oc-2c1,,H37Rv,,,MIC bound,BACTEC,≤12.5 µg/mL
CN(C)C(=O)/C=C/C(=O)N(C)C,,H37Rv,,,MIC,,100 µg/mL
O=c1cc(-c2ccccc2)oc2ccc(Br)cc12,,H37Rv,,,MIC,,>12.5 µg/mL
COc1cc2c(cc1C)n([O-])c(C)c(C(=O)C/C(=N\NC(=O)C[N+](C)(C)C)C(=O)Nc1cccc(Cl)c1C)[n+]2=O.[Cl-],12.5 µg/mL,H37Rv,,,inhibition,BACTEC,-12%
Clc1ccccc1-c1c(C(c2ccccc2)n2ccnc2)cnn1-c1ccccc1,,ATCC 35820 (streptomycin-resistant),,,MIC90,,>100 µM
C[n+]1c(-c2ccc(/C=N/NC(=O)c3cccc(C(=O)N/N=C/c4ccc(-c5cn6ccccc6[n+]5C)cc4)c3)cc2)cn2ccccc21.Cc1ccc(S(=O)(=O)[O-])cc1.Cc1ccc(S(=O)(=O)[O-])cc1,,H37Rv,,,MIC bound,BACTEC,>12.5 µg/mL
CCn1cc(C(=O)O)c(=O)c2cc(F)c(N3CCN(C/C(=N/O)c4ccc(F)cc4)CC3)cc21,,H37Rv,,,EC50,,>6.25 µg/mL
CC(C)=CC(=O)CC(=O)C(=O)NCCNC(=O)C(=O)CC(=O)C=C(C)C,,H37Rv,,,MIC bound,,>6.25 µg/mL
CCn1cc(C(=O)O)c(=O)c2cc(F)c(N3CCN(CC(=O)c4ccc(F)cc4)CC3)cc21,,H37Rv,VERO,,MIC,,6.25 µg/mL
CC(=O)NC[C@H]1CN(c2ccc(N3CCN(c4ccc([N+](=O)[O-])s4)CC3)c(F)c2)C(=O)O1,,PC 4793,,,MIC,,>32 µg/mL
O=C(Nc1ccc(OC(F)(F)F)cc1)c1ccc(CO[C@@H]2COc3nc([N+](=O)[O-])cn3C2)cc1,,,,,MIC90,low oxygen,0.95 µM
Nc1ccc(S(=O)(=O)c2ccncc2)cc1,,H37Rv,,,MIC,,>100 µg/mL
N[C@@H]1CN(c2c(F)cc3c(=O)c(C(=O)O)cn([C@@H]4C[C@@H]4F)c3c2Cl)CC12CC2,,Clinical strain,,XDR,MIC90,resazurin,0.5 µg/mL
Clc1ccc(-c2c(C(c3ccccc3)n3ccnc3)cnn2-c2ccc(Cl)cc2)cc1,,ATCC 35837 (ethambutol-resistant),,,MIC90,,≥100 µM
NC(=S)Nc1ccc([N+](=O)[O-])cc1,,H37Rv,,,MIC,,100 µg/mL
C=CCN(CC=C)C(=O)C1C2CC3OC(=O)C1C3C2,12.5 µg/mL,H37Rv,,,inhibition,BACTEC,25%
CCC(N=C(N)N)C(=O)O,,H37Rv,,,MIC,,>100 µg/mL
O=c1ccc2c(Cl)cc(N3CCOCC3)nc2[nH]1,6.25 µg/mL,H37Rv,,,inhibition,BACTEC,2%
COc1ccc2c(c1OC)C(=C(Cl)Cl)N1CCc3cc4c(cc3C1=C2C=O)OCO4,,H37Rv,,,MIC bound,BACTEC,>12.5 µg/mL
O=C1c2cc(F)ccc2-n2c1nc1cccc(F)c1c2=O,,MDR 10038,,,MIC,,5 µg/mL
c1ccc(-c2c(C(c3ccccc3)n3ccnc3)cnn2-c2ccccc2)cc1,,ATCC 35820 (streptomycin-resistant),,,MIC50,,43.5 µM
CO[C@H]1/C=C/O[C@@]2(C)Oc3c(C)c(O)c4c(O)c(c(/C=N/N5CCN(C/C=C/c6ccccc6)CC5)c(O)c4c3C2=O)NC(=O)/C(C)=C\C=C\[C@H](C)[C@H](O)[C@@H](C)[C@@H](O)[C@@H](C)[C@H](OC(C)=O)[C@@H]1C,,2237 (RIF-S),,,MIC,,0.015 µg/mL
CN1C/C(=C\c2ccccc2[N+](=O)[O-])C(=O)/C(=C/c2ccccc2[N+](=O)[O-])C1.Cl,12.5 µg/mL,H37Rv,,,inhibition,BACTEC,73%
O=[N+]([O-])c1cn2c(n1)OC[C@@H](OCc1ccc(C#Cc3ccc(C(F)(F)F)cn3)nc1)C2,,,,,MIC90,resazurin,0.26 µM
Nc1ccc2c(N3CCCCC3)cc(N3CCOCC3)nc2n1,6.25 µg/mL,H37Rv,,,inhibition,BACTEC,6%
COC(=O)c1ccc(C(=O)OC)c2nc3cc([N+](=O)[O-])ccc3nc12,12.5 µg/mL,H37Rv,,,inhibition,BACTEC,9%
CN1CCN(c2ccc3c(c2)-n2c(nc4ccccc4c2=O)C3=O)CC1,,H37Rv,,,MIC,,5 µg/mL
O=c1cc(CNc2ccccc2)c2ccccc2[nH]1,,H37Rv,,,MIC,,25 µg/mL
Cc1cccc(Sc2ccncc2)c1,6.25 µg/mL,H37Rv,,,inhibition,,0%
C=CC(N)=O,,H37Rv,,,MIC,,>100 µg/mL
CC1=NN(C(=O)c2cccnc2)C(=O)C1N=Nc1ccc(S(=O)(=O)N=C(N)N)cc1,,H37Rv,,,MIC bound,BACTEC,>12.8 µg/mL
O=[N+]([O-])c1cn2c(n1)OC[C@@H](OCc1ccc(C#Cc3ccc(C(F)(F)F)cn3)cn1)C2,,,,,MIC90,low oxygen,1.6 µM
Clc1ccccc1Sc1ncnc2nc[nH]c12,,H37Rv,,,MIC90,,>6.25 µg/mL
Fc1ccccc1-c1c(C(c2ccccc2)n2ccnc2)cnn1-c1ccccc1F,,ATCC 35822 (isoniazid-resistant),,,MIC90,,≥100 µM
CCn1cc(C(=O)O)c(=O)c2cc(F)c(N3CCN(CC(=O)c4ccc(Br)cc4)CC3)nc21,,H37Rv,,,EC50,,>6.25 µg/mL
O=C(O)c1c2c3c(cccc3[nH]c1=O)C(=O)c1ccccc1-2,,H37Rv,,,MIC,,>100 µg/mL
O=C(CN1CCN(c2cc3c(cc2F)c(=O)c(C(=O)O)cn3C2CC2)CC1)c1ccc(Br)cc1,6.25 µg/mL,H37Rv,VERO,,inhibition,,101%
COCC12CC(CC1=O)C1C2ON2c3ccccc3C(=O)C12c1ccccc1,,H37Rv,,,MIC bound,resazurin,>6.25 µg/mL
O=C1c2cccc(F)c2-n2c1nc1ccccc1c2=O,,MDR 10038,,,MIC,,1 µg/mL
NC(=O)c1cnccn1,,W7804,,,MIC,,30 µg/mL
Nc1ncccc1/C=C/C(=O)c1cc(Cl)ccc1O,,H37Rv,,,MIC,,>12.5 µg/mL
CCN(CCO)CCCNc1c2ccc(Cl)cc2nc2ccc(OC)cc12,,H37Rv,,,MIC,,>100 µg/mL
O=[N+]([O-])c1cn2c(n1)OC[C@@H](OCc1ccc(N3CCC(Oc4ccc(OC(F)(F)F)cc4)CC3)cc1)C2,,,,,MIC90,low oxygen,2.2 µM
COC(=O)/C(=N\NC(N)=O)C(C(=O)C(=O)Nc1ccc(C)cc1)c1nc2ccc(C(=O)c3ccccc3)cc2[nH]c1=O,6.25 µg/mL,H37Rv,,,inhibition,resazurin,18%
CO[C@H]1/C=C/O[C@@]2(C)Oc3c(C)c(O)c4c(O)c(c5c(c4c3C2=O)NC2(CCN(CC(C)C)CC2)N=5)=NC(=O)/C(C)=C\C=C\[C@H](C)[C@H](O)[C@@H](C)[C@@H](O)[C@@H](C)[C@H](OC(C)=O)[C@@H]1C,,H37Rv-pAV (Val516 mutation),,,MIC,,≤0.015 µg/mL
OCC1OC(OC2C3CSC(O3)C(O)C2O)C(O)C(O)C1O,12.5 µg/mL,H37Rv,,,inhibition,BACTEC,-1%
CC1COc2c(N3CCN(C)CC3)c(F)cc3c(=O)c(C(=O)O)cn1c23,,ATCC 35822 (isoniazid-resistant),,,MIC90,,3.4 µM
O=c1oc2ccccc2c(O)c1C(c1ccc(Cl)cc1)c1c(O)c2ccccc2oc1=O,12.5 µg/mL,H37Rv,,,inhibition,BACTEC,35%
CCn1cc(C(=O)O)c(=O)c2cc(F)c(N3CCN(C/C(=N/O)c4ccccc4)CC3)nc21,,H37Rv,,,EC50,,>6.25 µg/mL
O=[N+]([O-])c1cn2c(n1)OC[C@@H](OCc1ccc(Cc3ccc(F)cc3)cc1)C2,,,,,MIC90,low oxygen,0.85 µM
CO[C@H]1/C=C/O[C@@]2(C)Oc3c(C)c(O)c4c(O)c(c(/C=N/N5CCN(C6CCCC6)CC5)c(O)c4c3C2=O)NC(=O)/C(C)=C\C=C\[C@H](C)[C@H](O)[C@@H](C)[C@@H](O)[C@@H](C)[C@H](O)[C@@H]1C,,H37Rv,,,MIC,,0.25 µg/mL

A second listing of 11 rows from above:

smiles	tested at	strain	cell line	changes	read-out	read by	result
COc1ccccc1CSc1ccccn1	6.25 µg/mL	H37Rv			inhibition		5%
CN1C/C(=C\c2ccccc2[N+](=O)[O-])C(=O)/C(=C/c2ccccc2[N+](=O)[O-])C1.Cl	12.5 µg/mL	H37Rv			inhibition	BACTEC	73%
CC(=O)Nc1ccc(C)cc1C		H37Rv			MIC		>100 µg/mL
CN(C)c1ccc(C=O)cc1		H37Rv			MIC		>100 µg/mL
Nc1ncccc1/C=C/C(=O)c1cc(Cl)ccc1O		H37Rv			MIC		>12.5 µg/mL
O=C1c2cc(F)ccc2-n2c1nc1cc(F)ccc1c2=O		H37Rv			MIC		<0.5 µg/mL
O=[N+]([O-])c1cn2c(n1)OC[C@@H](OCc1ccc(C#Cc3ccc(C(F)(F)F)cn3)nc1)C2					MIC90	resazurin	0.26 µM
COc1cc2c(cc1C)n([O-])c(C)c(C(=O)C/C(=N\NC(=O)C[N+](C)(C)C)C(=O)Nc1cccc(Cl)c1C)[n+]2=O.[Cl-]	12.5 µg/mL	H37Rv			inhibition	BACTEC	-12%
Cc1c(Cl)cc(Cl)cc1C(=O)c1ccccc1C(=O)O		H37Rv			MIC		>100 µg/mL
c1ccc(SCCCCSc2ccccc2)cc1		H37Rv			MIC		>100 µg/mL
Cc1ccc2c(Cl)c(C)c(N3CCCCC3)nc2n1		H37Rv			EC50	BACTEC	>6.25 µg/mL